These results are taken from patent publication US10028938B2, “Antiviral agents and uses thereof” (Griffith University, priority 2014, dated 2018).

The chains behind the UniProt entries cited, without tags or fusion partners.
UniProt P08492, whole entry: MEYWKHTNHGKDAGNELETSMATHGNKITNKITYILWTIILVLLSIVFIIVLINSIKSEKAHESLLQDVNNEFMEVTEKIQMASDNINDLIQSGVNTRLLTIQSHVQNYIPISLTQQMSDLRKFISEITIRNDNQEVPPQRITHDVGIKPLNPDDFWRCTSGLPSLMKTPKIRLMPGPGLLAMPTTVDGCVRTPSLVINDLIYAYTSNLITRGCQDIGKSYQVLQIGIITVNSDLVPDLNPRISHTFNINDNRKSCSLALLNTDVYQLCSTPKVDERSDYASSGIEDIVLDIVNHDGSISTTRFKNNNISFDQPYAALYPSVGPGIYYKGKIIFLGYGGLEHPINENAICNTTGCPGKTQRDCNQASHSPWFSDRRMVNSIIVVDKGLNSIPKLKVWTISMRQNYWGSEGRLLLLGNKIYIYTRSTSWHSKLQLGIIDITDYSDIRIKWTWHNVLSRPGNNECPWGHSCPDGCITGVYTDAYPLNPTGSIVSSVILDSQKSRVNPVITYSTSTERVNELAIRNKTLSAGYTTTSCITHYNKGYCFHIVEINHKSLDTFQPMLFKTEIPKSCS

The match of structure and compound is tentative.

One assay relates to hPIV-3. The assay can be described thus: In situ ELISA virus growth inhibition. The conditions noted are these: read-out: Cell-based ELISA IC50, Table 4, A549 cells, tested form: Na salt.
For a further assay, the target named is hPIV-3 HN (Human parainfluenza 3 virus, UniProt P08492). The assay can be described thus: Neuraminidase inhibition (NI) assay with purified hPIV-3 and MUN substrate. As to conditions: read-out: NI hPIV-3 IC50; tested form: Na salt.

In the case of `CC(C)C(=O)N[C@H]1[C@H]([C@H](O)[C@H](O)CO)OC(C(=O)[O-])=C[C@@H]1n1cc(-c2ccccc2)nn1.[Na+]` [Compound 10, Sodium 2,6-anhydro-3,4,5-trideoxy-5-isobutyramido-4-(4-phenyl-[1,2,3,]triazol-1-yl)-D-glycero-D-galacto-non-2-enonate], the IC50 was found to be 10 µM in the assay on hPIV-3 and 2.5 µM at hPIV-3 HN.
Regarding `COCc1cn([C@H]2C=C(C(=O)O)O[C@@H]([C@H](O)[C@H](O)CO)[C@@H]2NC(=O)C(C)C)nn1` [Compound 9, Sodium 2,6-anhydro-3,4,5-trideoxy-5-isobutyramido-4-(4-methoxymethyl-[1,2,3,]triazol-1-yl)-D-glycero-D-galacto-non-2-enonate], the IC50 in the assay on hPIV-3 worked out at 80 µM; on hPIV-3 HN, 12 µM.
